Test results from article PMC9954444, “SERPIN-Derived Small Peptide (SP16) as a Potential Therapeutic Agent against HIV-Induced Inflammatory Molecules and Viral Replication in Cells of the Central Nervous System” (Cells, 2023).

Columns and labels:
endothelial cells = assay: Cell viability, MTT and trypan blue, endothelial cells; type: cell-based, human; settings: range of SP16 concentrations, 24 and 96 h
Description: Cell proliferation and survival were measured using an MTT (3-[4,5-dimethylthiazol-2-yl]-2,5 diphenyl tetrazolium bromide) cell growth assay kit from MilliporeSigma (Temecula, CA, USA). Human brain cells at a cell density of 3 × 10^4 cells/well, were exposed to SP16 at different concentrations. After 24 and 96 h, 10 μL of 12 mM MTT solution was added to each well. After 4 h of incubation, DMSO was added to dissolve the formazan crystals. The absorbance in each well was read at 570 nm with a reference wavelength of 630 nm on a Synergy HTX microplate reader from BioTek (Winooski, VT, USA).
Cell viability was measured using trypan blue exclusion assay, which allows for the identification of live (unstained) and dead (blue) cells. Human brain cells were grown to confluency in a 24-well plate and exposed to SP16 at increasing concentrations. After 24 and 96 h, cells were harvested using enzyme-free cell dissociation buffer followed by centrifugation. Pellets were re-suspended in their specific media, and 10 μL of suspensions were diluted in an equal volume of 0.40% trypan blue dye from Bio-Rad (catalog #145-0013, Hercules, CA, USA). 10 µL was loaded on a counting chamber, and a TC20 automated cell counter determined the percentage of live cells from Bio-Rad (Hercules, CA, USA). Cell viability was expressed as the percentage of live cells out of total cells.

[1] = tested on: primary mixed glia cultures; assay: ELISA of inflammatory molecules in mouse brain glia; type: cell-based, C57BL/6J mice; settings: 250 μg/mL SP16, 12 h post-treatment (Figure 9 legend: 24 h)
[2] = tested on: primary endothelial cells; assay: ELISA of inflammatory molecules in endothelial cell supernatant; type: cell-based, human; settings: 12 h
[3] = tested on: primary mixed glia cultures; assay: Immunoblotting of LRP-1, NF-κB and Akt in mouse glia; type: cell-based, C57BL/6J mice
Description: Proteins in brain cell lysates and postmortem brain homogenates were separated by SDS-PAGE, transferred to PVDF membranes, and subsequently incubated with primary antibodies from Santa Cruz Biotechnology (Dallas, TX, USA), including NF-κB at 1:200 dilution (catalog # sc-8008) and β-actin at 1:200 dilution (catalog # sc-47778). Antibodies from Abcam (Boston, MA, USA), including Akt at dilution 1:500 (catalog # ab-38449) and LRP-1 at dilution 1:50,000 (catalog # ab-92544). After primary antibodies, membranes were incubated with horseradish peroxidase-conjugated secondary antibodies followed by exposure to SuperSignal West Femto Substrate from Thermo Scientific (Waltham, MA, USA). Membranes were visualized using a ChemiDoc imaging system from Bio-Rad (Hercules, CA, USA) and protein expression was calculated using Image J software from NIH (Bethesda, MD, USA).
C57BL/6J mice (Jackson Laboratory, Bay Harbor, ME, USA) were bred in the animal facility at Florida International University. Mice were placed 3–5 per cage and maintained in a controlled temperature and humidity room. The animals were cared for in accordance with the Principles of Animal Care outlined by the National Institutes of Health and approved by the Institutional Animal Care and Use Committee of Florida International University. Protocol Approval: IACUC-21-007-CR01. The EcoHIV-NDK plasmid used was provided by Dr. David Volsky at Mount Sinai school of medicine. The plasmid was transfected in HEK293T cells to generate EcoHIV stocks as previously described. For the in vivo experiments, male mice between the ages of 4–6 months were administrated 1 mL of either saline or 1 × 10^6 pg p24 units of EcoHIV by intraperitoneal (IP) cavity. After 3–4 weeks, animals received cART daily via IP administration. The cART regimen consisted of Emtricitabine, Ritonavir, and Atazanavir at a concentration of 100 mg/kg each, based on previously published literature by others. A subset of cART treated animals received SP16 every other day at concentration of 10 μg/kg, via the intranasal route, as described previously by us. After treatments (at day 5), mice were sacrificed and whole brains, excluding the brainstem and the olfactory bulb, were collected. Half of the recovered brain hemisphere was used for immunohistochemistry and LC-MS/MS while the other half was homogenized and used for biochemical assays. For protein biochemical assays, postmortem brains were homogenized in cell lysis buffer (Thermo Scientific, Waltham, MA, USA) using a bead-beater apparatus (MagNA Lyser, Roche, Indianapolis). Bioavailability of SP16 in the brain was monitored with LC-MS/MS using 703 (triple charged) parent ion and its two daughter ions 129.1 and 84.1. […]

[4] = tested on: EcoHIV-infected mouse brain; assay: Inflammatory molecules in brain homogenates of EcoHIV-infected mice, ELISA; type: in vivo, C57BL/6J mice; settings: EcoHIV-infected male mice; SP16 10 μg/kg intranasal every other day added to daily IP cART; brain homogenate; N = 3–5/treatment
[5] = cited from earlier work
Source text: For the study described here, we used SP16, a peptide derived from the serine proteinase inhibitor (serpin), A1AT, found in abundance in human plasma. A1AT drugs have both pro- and anti-inflammatory structural regions, and when used to treat inflammation, the pro-inflammatory regions dampen the anti-inflammatory effect.

[6] = HIV-infected endothelial cells, SP16 25 and 250 μg/mL
[7] = endothelial cells, 100 µg/mL SP16, without LRP-1 silencing
[8] = mouse glia, 25 and 250 μg/mL SP16

CCCC[C@H](NC(=O)[C@H](CC(C)C)NC(=O)[C@H](Cc1ccccc1)NC(=O)[C@@H](NC(=O)[C@H](Cc1ccccc1)NC(=O)[C@@H]1CCCN1C(=O)[C@H](CCCCN)NC(=O)[C@H](CC(N)=O)NC(=O)[C@H](Cc1ccccc1)NC(=O)[C@H](CCCCN)NC(=O)[C@@H](NC(C)=O)C(C)C)C(C)C)C(=O)N[C@H](C(=O)N[C@@H](CCC(=O)O)C(=O)N[C@@H](CCC(N)=O)C(=O)N[C@@H](CC(N)=O)C(=O)N[C@H](C(=O)N[C@@H](CCCCN)C(N)=O)[C@@H](C)O)[C@@H](C)CC [SP16]
cell viability (endothelial cells): did not decrease cell viability
decrease in secretion levels of IL-6 [1]: about 25%
decrease in secretion levels of MCP-1 [1]: about 80%
decrease in secretion of IL-8 [2, 6]: about 15%
decrease in secretion of MCP-1 [2, 6]: about 40%
secreted levels of IL-6 [2, 7]: significant decrease
secreted levels of IL-8 [2, 7]: significant decrease
secretion of IL-6 and IL-8 after silencing the LRP-1 gene ([2]; endothelial cells, siRNA against LRP-1, 48 h post-transfection, SP16 25 and 100 µg/mL): reversal
reduction of NF-κB expression level ([3]; 250 μg/mL SP16, compared to infected glia without SP16): more than 75%
expression of Akt ([3]; mouse glia, 250 μg/mL SP16): significantly induced
expression levels of LRP-1 [3, 8]: significantly downregulated
expression levels of NF-κB [3, 8]: significantly downregulated
decrease in MCP-1 as compared to cART alone [4]: 48%
decrease in RANTES as compared to cART alone [4]: 35%
cardiac liability ([5]; in vivo): no cardiac liability
drug-specific toxicity ([5]; in vivo): no drug-specific toxicity
humoral immune response ([5]; in vivo): no humoral immune response
off-target effects ([5]; in vivo): no off-target effects
safety in a phase 1 trial ([5]; in vivo): no safety concerns
potency relative to A1AT ([5]; statement in Discussion, no test described, ref not given): 300 times
